{"source": "ChEMBL document CHEMBL4303087", "about": "“Broad anti-coronaviral activity of FDA approved drugs against SARS-CoV-2 in vitro and SARS-CoV in vivo” (2020)", "system": "Vero C1008", "conditions": "chlorocebus sabaeus, vero c1008, 72 h"}
{"smiles": "COc1ccc(C[C@H]2NC[C@H](O)[C@H]2OC(C)=O)cc1", "note": "[ANISOMYCIN]", "values": [{"measurement": "CC50", "value": "< 390", "unit": "nM"}]}
